Among the data in ChEMBL document CHEMBL4007391, “Tackling Fungal Resistance by Biofilm Inhibitors” (J Med Chem, 2017) are IC50 values, retold here.

In this assay the test system is Candida albicans. Kind of assay: Antibiofilm activity against Candida albicans SC5314 after 24 hrs by XTT assay. It counts as functional.

`CCN(CCO)CCO.Oc1c(Cl)c(Cl)c(Cl)c(Cl)c1Cl` had an IC50 of 2.86 µM.
